Results: paper PMC12389581, “Inhibition of Human Coronavirus 229E by Lactoferrin-Derived Peptidomimetics” (Pharmaceutics, 2025)
Where “and” joins values, the source holds several entries; their conditions need not be identical. Identical values can stand only once. Non-standard residues stand in square brackets, D forms with d. Residues, ends and D or L forms follow the SMILES beside them. NMeH = CN[C@@H](Cc1c[nH]cn1)C(=O)O

System: 229E Coronavirus

With CC(=O)N[C@@H](CO)C(=O)N[C@@H](CCCCN)C(=O)N(C)[C@@H](Cc1c[nH]cn1)C(=O)N[C@@H](CO)C(N)=O [Compound 3, SK(N-Me)HS] (Ac-SK[NMeH]S-NH2) the “fold higher potency than natural lactoferrin-derived peptides” value (compared with peptides of IC50 > 1 µM) was “over 10^3 fold” and the SI (ratio of CC50 (typically > 25 μM) to EC50, 229E coronavirus) was > 10^5 and >8 × 10^5.
